Pooled drug test results. Numbers come from NIAID ChemDB, via PubChem.

Common to all: enzyme or target tests; agent: HIV-1; target: Reverse transcriptase

ICn is the concentration giving n% inhibition. Neighbouring rows are from separate reports. Blank or dashed fields: not listed here.

smiles,method,strain,setting,changes,read-out,result
O=C1c2ccncc2C(=O)N1CCNC(=S)Nc1ccc(Br)cn1,nucleotide incorporation,-,-,RT-Y188L,Ki,>5 µM
CCC1(c2cccc(Cl)c2)Cc2ccccc2-n2cccc2C1=O,nucleotide incorporation / radiometric,-,-,RT-Y181I,IC50,>10 µM
Nc1ccn([C@@H]2CS[C@H](COP(=O)(O)OP(=O)(O)OP(=O)(O)O)O2)c(=O)n1,nucleotide incorporation / radiometric,-,-,RT-A62V V75I F77L F116Y Q151M,Ki,2.4 µM
O=S(=O)(O)c1cc(NS(=O)(=O)c2ccc(-c3ccc(S(=O)(=O)Nc4cc(S(=O)(=O)O)c5cccc(S(=O)(=O)O)c5c4)cc3)cc2)cc2c(S(=O)(=O)O)cccc12,RT activity,-,-,-,IC50,6.8 µM
CCC1(c2ccc(I)cc2)Oc2ccccc2-n2cccc2C1=O,nucleotide incorporation / radiometric,-,-,RT-Y188L,IC50,27 µM
CC(=O)Nc1ccc(S(=O)(=O)N2CCN(C(=O)c3cc(O)c(O)c(O)c3)CC2)cc1,ELISA / nucleotide incorporation,BH10,-,-,IC50,>50 µM
Nc1ncnc2c1ncn2CCOCP(=O)(O)OP(=O)(O)OP(=O)(O)O,nucleotide incorporation / radiometric,-,-,-,Ki,0.21 µM
CC(C)(C)OC(=O)N1CCC(NC(=O)c2cc(O)c(O)c(O)c2)CC1,ELISA / nucleotide incorporation,BH10,-,-,IC50,>340.5 µM
CCc1c([Se]c2ccccn2)n(COCc2ccccc2)c(=O)[nH]c1=O,RT activity,RT-WT,-,-,IC50,0.2 µM
CCC1(c2ccc(CNc3cccc(F)c3)cc2)Oc2ccccc2-n2cccc2C1=O,nucleotide incorporation / radiometric,-,-,RT-L100I,IC50,2.5 µM
O=C1CCN(CCOc2ccc(Cl)cc2C(=O)c2cc(Cl)cc(Cl)c2)C(=O)N1,RT activity,-,pseudotyped,Y181C,Ki,0.36 µM
O=c1c2cccn2c2cccc(F)c2n1CCNC(=S)Nc1ccc(Br)cn1,nucleotide incorporation,-,-,RT-Y188L,Ki,0.2 µM
O=C(CCCCCCCCCCC(=O)Nc1cc(S(=O)(=O)O)cc2cc(S(=O)(=O)O)cc(O)c12)Nc1cc(S(=O)(=O)O)cc2cc(S(=O)(=O)O)cc(O)c12,RT activity,-,-,-,IC50,2.8 µM
CCC1(c2ccc(COc3ccccc3)cc2)Oc2ccccc2-n2cccc2C1=O,nucleotide incorporation / radiometric,-,-,RT-K103N,IC50,0.4 µM
Cc1cccc(S(=O)(=O)N2CCN(C(=O)c3cc(O)c(O)c(O)c3)CC2)c1,ELISA / nucleotide incorporation,BH10,-,-,IC50,>50 µM
CCC1(c2cccc(N)c2)Oc2ccccc2-n2cccc2C1=O,nucleotide incorporation / radiometric,-,-,RT-V106A,IC50,1.6 µM
N#Cc1ccc(NC(=S)N[C@@H]2[C@@H]3COc4c(F)ccc(F)c4[C@@H]32)nc1,scintillation proximity / radiometric,-,-,K103N,IC50,0.0087 µM
COc1cccc(C(=O)N2CCN(C(=O)c3cc(O)c(O)c(O)c3)CC2)c1,ELISA / nucleotide incorporation,BH10,-,-,IC50,>50 µM
Cc1cc2c(cc1C)n1cccc1c(=O)n2CCNC(=S)Nc1ccc(Br)cn1,nucleotide incorporation,-,-,RT-L100I,Ki,0.16 µM
Cc1occc1C(=S)Nc1ccc(Cl)c(/C=N/OC(C)(C)C)c1,-,-,-,RT-L74V,IC50,6.1 µM
CC(C)=CCN1Cc2cccc3[nH]c(=S)n(c23)C[C@@H]1C,RT activity,-,-,RT-L100I,IC50,>20 µM
c1ccc(C2SCc3nc4ccccc4n32)cc1,-,-,-,-,IC50,~45 µM
Nc1ncnc2c1ncn2[C@H]1CC[C@@H](COP(=O)(O)OP(=O)(O)OP(=O)(O)O)O1,nucleotide incorporation / radiometric,-,-,RT-K65R,Ki,2.4 µM
CCc1c(Sc2ccccc2)n(COCc2ccccc2)c(=O)[nH]c1=O,RT activity,-,-,RT-T181C,IC50,9.6 µM
Cc1cc(C)cc(C(=O)c2cc(Cl)ccc2OCCN2C(=O)NC(=O)C(C)C2C)c1,RT activity,-,pseudotyped,Y181C,Ki,0.21 µM
Nc1ncnc2c1ncn2[C@@H]1O[C@H](COP(=O)(O)OP(=O)(O)OP(=O)(O)O)C[C@@H]1F,nucleotide incorporation / radiometric,-,-,RT-T215Y,Ki,3.7 µM
Cc1c(Sc2ccccc2)n(COCCO)c(=O)[nH]c1=O,nucleotide incorporation,-,-,RT-T139I N348K,IC50,1 µM
O=C(c1cc(O)c(O)c(O)c1)N1CCNCC1,ELISA / nucleotide incorporation,BH10,-,-,IC50,>50 µM
C/C=C/CSc1cc(NC(=S)c2ccsc2C)ccc1Cl,-,-,-,RT-L74V,IC50,7.8 µM
C=C(C)CCOCc1ccc(C2(CC)Oc3ccccc3-n3cccc3C2=O)cc1,nucleotide incorporation / radiometric,-,-,RT-Y181I,IC50,>10 µM
Cc1ccc2c(c1)n(CCNC(=S)Nc1ccc(Br)cn1)c(=O)c1cccn12,nucleotide incorporation,-,-,RT-K103N,Ki,0.5 µM
CC(C)=CCN1Cc2cccc3[nH]c(=O)n(c23)CC1C,nucleotide incorporation,-,-,-,IC50,2 µM
CCOc1cccc(C2(CC)Oc3ccccc3-n3cccc3C2=O)c1,nucleotide incorporation / radiometric,-,-,RT-L100I,IC50,0.2 µM
Cc1cn([C@H]2C=C[C@@H](COP(=O)(O)OP(=O)(O)OP(=O)(O)O)O2)c(=O)[nH]c1=O,RT activity,-,-,RT-K103N,Ki,0.03 µM

3 of the rows above, restated:

smiles	method	strain	setting	changes	read-out	result
CCC1(c2cccc(Cl)c2)Cc2ccccc2-n2cccc2C1=O	nucleotide incorporation / radiometric	-	-	RT-Y181I	IC50	>10 µM
Cc1ccc2c(c1)n(CCNC(=S)Nc1ccc(Br)cn1)c(=O)c1cccn12	nucleotide incorporation	-	-	RT-K103N	Ki	0.5 µM
O=C(CCCCCCCCCCC(=O)Nc1cc(S(=O)(=O)O)cc2cc(S(=O)(=O)O)cc(O)c12)Nc1cc(S(=O)(=O)O)cc2cc(S(=O)(=O)O)cc(O)c12	RT activity	-	-	-	IC50	2.8 µM